Results of unrelated studies side by side (data: NIAID ChemDB).

Common to all: growth or infection tests; agent: Candida albicans; endpoint: MIC

An empty or dashed field is not shown. Lines come from different laboratories, so protocols vary.

SMILES	strain	value
CC[C@H]1OC(=O)C[C@@H](O)[C@H](C)[C@@H](OC2OC(C)C(O)C(N(C)C)C2O)[C@@H](CCN2CC(C)CC(C)C2)C[C@@H](C)C(=O)/C=C/C=C/[C@@H]1CSC1CCCCC1	-	5 µg/mL
Cc1nn(-c2ccccc2)c2c1C(c1cccc([N+](=O)[O-])c1)c1c(nc(=S)[nH]c1N)O2	MTCC 227	1000 µg/mL
CC[C@H]1OC(=O)C[C@@H](O)[C@H](C)[C@@H](OC2OC(C)C(O)C(N(C)C)C2O)[C@@H](CCN2CC(C)CC(C)C2)C[C@@H](C)C(=O)/C=C/C=C/[C@@H]1CSc1ccccn1	-	2.5 µg/mL
OC(Cn1cncn1)(Cn1cncn1)c1ccc(F)cc1F	76 strains	40 µg/mL
CCOC(=O)c1cc(-c2ccccc2)n(CCn2c([N+](=O)[O-])cnc2C)c1C	-	>1024 µg/mL
Cc1nn(-c2ccccc2)c2c1C(c1ccccc1)c1c(nc(=O)[nH]c1N)O2	MTCC 227	250 µg/mL
CC1(c2ccccc2)CC(C(=O)c2cc3ccccc3o2)C1	ATCC 10231	0.625 µg/mL
CC1(C)CC(=O)c2cc(C3CC(c4ccc(Cl)cc4)=NN3C(N)=S)[nH]c2C1	ATCC 2091	200 µg/mL
CCc1ccc(-c2nc3cc(NC(=O)c4ccccc4)ccc3o2)cc1	RSKK 628	50 µg/mL
CCCCCN=c1ssc2ncccc12	-	30 µg/mL
CC1(C)CC(=O)c2cc(C3CC(c4ccc(Br)cc4)=NN3C(N)=S)[nH]c2C1	ATCC 2091	200 µg/mL
C[C@@H](n1cnc2cc(Cl)ccc2c1=O)[C@](O)(Cn1cncn1)c1ccc(F)cc1F	406 strains	≤0.03 µg/mL
Cc1nn(-c2ccccc2)c2c1C(c1ccccc1Cl)c1c(nc(=O)[nH]c1N)O2	MTCC 227	500 µg/mL
C[C@@H](n1cnc2cc(/C(N)=N/S(N)(=O)=O)ccc2c1=O)[C@](O)(Cn1cncn1)c1ccc(F)cc1F	60 strains	10 µg/mL
CCc1ccc(C(=O)Nc2ccc3oc(-c4ccc(CC)cc4)nc3c2)cc1	RSKK 628	50 µg/mL
O=c1c2cccnc2sn1CCc1ccccc1	-	30 µg/mL
CCc1ccc(-c2nc3cc(NC(=O)Cc4ccc(Br)cc4)ccc3o2)cc1	RSKK 628	50 µg/mL
CC1(c2ccccc2)CC(/C(=N/OCC(O)CN2CCOCC2)c2cc3ccccc3o2)C1	ATCC 10231	0.625 µg/mL
CC[C@H]1OC(=O)C[C@@H](O)[C@H](C)[C@@H](OC2OC(C)C(O)C(N(C)C)C2O)[C@@H](CCN2CC(C)CC(C)C2)C[C@@H](C)C(=O)/C=C/C=C/[C@@H]1CNN1CC(C)CC(C)C1	-	0.312 µg/mL
O=C(Nc1ccc2oc(-c3ccccc3)nc2c1)c1ccccc1Cl	RSKK 628	25 µg/mL
Fc1ccc(/C(Cn2ccnc2)=N/OCc2ccccc2)cc1	CDCB385	16 µg/mL
CCCCCCCCCCCCCC[C@@H](N)C(=O)N[C@H](C(=O)O)C1O[C@@H](n2ccc(=O)[nH]c2=O)[C@H](O)[C@@H]1O	124 NIK (nikkomycin-R)	>320 µg/mL
O=c1c2cccnc2sn1CCCc1ccccc1	-	20 µg/mL
Clc1ccc(/C(Cn2ccnc2)=N/OCc2ccccc2)c(Cl)c1	CA7	16 µg/mL
O=C(Nc1ccc2oc(-c3ccccc3)nc2c1)c1ccc([N+](=O)[O-])cc1	RSKK 628	25 µg/mL
CCCn1sc2ncccc2c1=O	-	30 µg/mL
CC[C@H]1OC(=O)C[C@@H](O)[C@H](C)[C@@H](OC2OC(C)C(O)C(N(C)C)C2O)[C@@H](CCN2CC(C)CC(C)C2)C[C@@H](C)C(=O)/C=C/C=C/[C@@H]1CI	-	2.5 µg/mL
Cc1nn(-c2ccccc2)c2c1C(c1cccc(Cl)c1)c1c(nc(=O)[nH]c1N)O2	MTCC 227	1000 µg/mL
C[C@@H](NC(=O)c1ccc(Cl)cc1N)[C@](O)(Cn1cncn1)c1ccc(F)cc1F	406 strains	0.07 µg/mL
Cc1ccc(C2C(C#N)=C(N)Oc3c2c(C)nn3-c2ccccc2)cc1	MTCC 227	500 µg/mL
CC[C@H]1OC(=O)C[C@@H](O)[C@H](C)[C@@H](OC2OC(C)C(O)C(N(C)C)C2O)[C@@H](CCN2CC(C)CC(C)C2)C[C@@H](C)C(=O)/C=C/C=C/[C@@H]1CSc1ccccc1	-	0.312 µg/mL
Cc1ccc(C(=O)Nc2ccc3oc(-c4ccccc4)nc3c2)cc1	RSKK 628	25 µg/mL
O=S1c2ccccc2SN1C1CC1	579A	25 µg/mL
O=C(Cc1ccc([N+](=O)[O-])cc1)Nc1ccc2oc(-c3ccccc3)nc2c1	RSKK 628	25 µg/mL
CCOC(=O)c1cc(-c2ccc(Cl)cc2)n(CCn2c([N+](=O)[O-])cnc2C)c1C	-	>1024 µg/mL
Cc1nn(-c2ccccc2)c2c1C(c1cccc(Br)c1)c1c(nc(=S)[nH]c1N)O2	MTCC 227	1000 µg/mL
CC1(C)CC(=O)c2cc(/C=C/C(=O)c3ccc(Cl)cc3)[nH]c2C1	ATCC 2091	200 µg/mL
C[C@@H](n1cnc2cccc(Cl)c2c1=O)[C@](O)(Cn1cncn1)c1ccc(F)cc1F	60 strains	0.15 µg/mL
CC[C@H]1OC(=O)C[C@@H](O)[C@H](C)[C@@H](OC2OC(C)C(O)C(N(C)C)C2O)[C@@H](CCN2CC(C)CC(C)C2)C[C@@H](C)C(=O)/C=C/C=C/[C@@H]1COC1OC(C)C=CC1OC	-	5 µg/mL
CC(C)(C)c1ccc(C(=O)Nc2ccc3oc(-c4ccccc4)nc3c2)cc1	RSKK 628	100 µg/mL
Clc1ccc(/C(Cn2ccnc2)=N\OCc2ccccc2)cc1	CA2	8 µg/mL
CCOC(=O)Cc1nnc2n1-c1nc3ccccc3nc1NN2	ATCC 2091	200 µg/mL
CCCCn1sc2ccc(F)cc2c1=O	-	2.5 µg/mL
CC1(C)CC(=O)c2cc(C3=CC(c4ccc(Br)cc4)=CC3c3nnc4c(n3)Nc3ccccc3N4)[nH]c2C1	ATCC 2091	200 µg/mL
c1ccc(CO/N=C(/Cn2ccnc2)c2ccccc2)cc1	CA6	>128 µg/mL
S=C(NCCc1ccccc1)c1ccc[nH]c1=S	-	30 µg/mL
Clc1ccc(/C(Cn2ccnc2)=N/OCc2ccccc2)cc1	CA6	16 µg/mL
O=C(Cc1ccccc1Cl)Nc1ccc2oc(-c3ccccc3)nc2c1	RSKK 628	25 µg/mL

For reference, 5 entries again:

SMILES,strain,value
O=C(Cc1ccc([N+](=O)[O-])cc1)Nc1ccc2oc(-c3ccccc3)nc2c1,RSKK 628,25 µg/mL
Cc1nn(-c2ccccc2)c2c1C(c1cccc([N+](=O)[O-])c1)c1c(nc(=S)[nH]c1N)O2,MTCC 227,1000 µg/mL
CC(C)(C)c1ccc(C(=O)Nc2ccc3oc(-c4ccccc4)nc3c2)cc1,RSKK 628,100 µg/mL
C[C@@H](NC(=O)c1ccc(Cl)cc1N)[C@](O)(Cn1cncn1)c1ccc(F)cc1F,406 strains,0.07 µg/mL
Cc1nn(-c2ccccc2)c2c1C(c1ccccc1)c1c(nc(=O)[nH]c1N)O2,MTCC 227,250 µg/mL